Anti-infective test results gathered from many reports (values: NIAID ChemDB through PubChem).

Common to all: enzyme or target tests; agent: HIV-1; protein: Integrase

An empty or dashed field is not shown. Neighbouring rows are from separate reports. ICn is the concentration giving n% inhibition. Two numbers with a dash give a range or band.

SMILES,strain or isolate,method,endpoint,changes,value
CCOC(=O)c1cn2c(c1O)C(=O)N(Cc1ccc(Cl)c(Cl)c1)CC2,,strand transfer,IC50,,<1.5 µM
Cc1cn2c(=O)c(O)c(-c3ncc(Cc4ccc(F)cc4)s3)nc2s1,,strand transfer,IC50,G140S/Q148H,<0.001 µM
CCNC(=O)c1cn2c(c1O)C(=O)N(Cc1ccc(F)cc1)CC2,,strand transfer,IC50,,<0.7 µM
Cc1cc(CNC(=O)C23CCC(NC(=O)C(=O)N(C)C)(CC2)c2nc(C(=O)NCc4ccc(F)c(C)c4)c(O)c(=O)n2C3)no1,,radiometric,Ki,,0.0000021 µM
O=C(O)c1cn2c(c1O)C(=O)N(Cc1ccccc1)CC2,,strand transfer,IC50,,<0.7 µM
Cc1cc(O)cc2c1[nH]c1c(C)cc3c(c12)C(=O)N(CCN(C)C)C3=O,,strand transfer,IC50,,>100 µM
CCCCN(C)C(=O)c1cn2ccn(Cc3cccc(Cl)c3)c(=O)c2c(O)c1=O,,ELISA,IC50,,0.01–0.1 µM
Cc1ccc2cc(-c3ccccc3)c3ccc(C)nc3c2n1,,strand transfer,IC50,,>100 µM
O=C(NCc1ccc(O)c(O)c1)c1cc2cc(O)c(O)cc2[nH]1,,3′ processing,IC50,,11 µM
COc1cccc2c1c(/C(O)=C/C(=O)C(=O)O)cn2Cc1cc(F)ccc1F.COc1cccc2c1c(/C(O)=C/C(=O)C(=O)O)cn2Cc1cc(F)ccc1F.[Mg+2].[Mg+2],IIIB,AlphaScreen,IC50,,0.85 µM
CC(C)(C)OC(=O)N1CCC(NC(=O)C(=O)/C=C(\O)c2ccc(F)cc2)CC1,,3′ processing,IC50,,>100 µM
O=C(NCCCCNC(=O)c1cc2cc3c(cc2[nH]1)OCO3)c1cc2cc3c(cc2[nH]1)OCO3,,3′ processing,IC50,,>100 µM
COc1ccc(/C(O)=C/C(=O)COc2c(C)cccc2Cc2cccc(Cc3cccc(Cc4cccc(C)c4O)c3OCC(=O)/C=C(\O)c3ccc(OC)cc3)c2O)cc1,,strand transfer,IC50,,21.2 µM
Nc1ncnc2c1ncn2[C@@H]1C[C@H](CO)[C@H](O)[C@H]1O,,3′ processing,IC50,,46–114 µM
CSCCC1CN(Cc2ccc(Cl)c(Cl)c2)C(=O)c2c(O)c(=O)ccn21,,ELISA,IC50,,0.01–0.1 µM
O=C(/C=C/c1ccc(O)c(O)c1)NCCC(NC(=O)/C=C/c1ccc(O)c(O)c1)C(=O)O,,3′ processing,IC50,,2.3 µM
Cc1cc(C(C)(C)C)cc(Cc2cc(C(C)(C)C)cc(Cc3cc(C(C)(C)C)cc(Cc4cc(C(C)(C)C)cc(C)c4OCC(=O)/C=C(\O)c4ccc(F)cc4)c3O)c2OCC(=O)/C=C(\O)c2ccc(F)cc2)c1O,,strand transfer,IC50,,>50 µM
Cc1cc(CNC(=O)c2nc3n(c(=O)c2O)CC2(N)CCC3(NC(=O)C(=O)N(C)C)CC2)ccc1F,,radiometric,Ki,,0.0000038 µM
O=C(NCc1ccc(F)cc1)c1nc2sc(CN3CCOCC3)cn2c(=O)c1O,,strand transfer,IC50,,1–10 µM
Cn1cc(C(=O)O)c(=O)c2cc(N)c(N3CCN(c4ccccn4)CC3)cc21,,,IC50,,75 µM
O=C(O)/C(O)=C/C(=O)n1c(=O)n(Cc2ccccc2)c(=O)n1Cc1ccccc1,,strand transfer,IC50,,3.3 µM
Cc1ncc(COP(=O)(O)O)c(C=O)c1O,,3′ processing,IC50,,25 µM
O=C(O)/C(O)=C/C(=O)N(CCc1ccc(F)cc1)Cc1ccccc1Cl,,strand transfer,IC50,,<70 µM
CC(=O)OCC12CCC(NC(=O)C(=O)N(C)C)(CC1)c1nc(C(=O)NCc3ccc(F)cc3)c(O)c(=O)n1C2,,radiometric,Ki,,0.0000024 µM
O=C1c2c(O)c(=O)c(-c3cccnn3)cn2CCN1Cc1cccc(Cl)c1,,ELISA,IC50,,0.01–0.1 µM
O=C(O)c1cn2c(c1O)C(=O)N(Cc1cccc(Cl)c1)CC2,,strand transfer,IC50,,<0.7 µM
CCN(CC)CCCC(C)Nc1ccnc2ccccc12,,strand transfer,IC50,,>300 µM
COC1(O)C(=O)c2c(O)cc(C)c3c4c(c(O)c(c23)C1=O)C(C)(C)C(C)O4,,strand transfer,IC50,,19 µM
CCO/C(CC(=O)NCc1ccc(OC)cc1)=N\Nc1ccccc1[N+](=O)[O-],,strand transfer,IC50,,>250 µM
CNC(=O)c1cn2c(c1O)C(=O)N(Cc1ccc(F)c(F)c1)CC2,,strand transfer,IC50,,<1.5 µM
O=C(O)C(=O)/C=C(\O)c1cn(-c2ccccc2F)c(=O)n(-c2ccccc2F)c1=O,,strand transfer,IC50,,<0.6 µM
Cc1cnc2c(ccc3c(C)c(C)cnc32)c1C,,3′ processing,IC50,,>100 µM
COc1cccc2c1c(/C(O)=C\C(=O)C(=O)O)cn2Cc1ccccc1F,IIIB,3′ processing / AlphaScreen,IC50,,1.8 µM
Cc1ccc(/C(O)=C/C(=O)COc2c(C)cc(C(C)(C)C)cc2Cc2cc(C(C)(C)C)cc(Cc3cc(C(C)(C)C)cc(Cc4cc(C(C)(C)C)cc(C)c4O)c3OCC(=O)/C=C(\O)c3ccc(C)cc3)c2O)cc1,,strand transfer,IC50,,>50 µM
CCN(CC)CCCC(C)Nc1ccnc2c(OC)c(Cl)ccc12,,3′ processing,IC50,,>300 µM
Cc1cn2c(=O)c(O)c(-c3ncc(Cc4ccc(Cl)cc4)s3)nc2s1,,strand transfer,IC50,,0.001–1 µM
CCO/C(CC(=O)NCc1ccccc1)=N\Nc1ccccc1[N+](=O)[O-],,strand transfer,IC50,,37.39 µM
O=C(/C=C(\O)C(=O)O)NCc1ccc(C(F)(F)F)cc1,,strand transfer,IC50,,<70 µM
Cc1cc(C(C)(C)C)cc(Cc2cc(C(C)(C)C)cc(Cc3cc(C(C)(C)C)cc(Cc4cc(C(C)(C)C)cc(C)c4OCC(=O)/C=C(\O)c4ccccc4)c3O)c2OCC(=O)/C=C(\O)c2ccccc2)c1O,,strand transfer,IC50,,>50 µM
O=c1c(Cc2ccccc2)cn2ccn(Cc3cccc(Cl)c3)c(=O)c2c1O,,ELISA,IC50,,0.01–0.1 µM
CN(C)CCN1C(=O)c2ccc3c(c2C1=O)c1cc(O)ccc1n3C,,strand transfer,IC50,,>100 µM
O=C(/C=C/c1ccc(O)c(O)c1)OCCc1ccccc1,,3′ processing,IC50,,5 µM
O=C(O)C(=O)/C=C(\O)c1cn(-c2ccc(F)cc2)c(=O)n(-c2ccc(F)cc2)c1=O,,strand transfer,IC50,,<0.7 µM
CC(C)N(CCCc1ccccc1)C(=O)/C=C(\O)C(=O)O,,strand transfer,IC50,,<70 µM
O=C1c2c(O)c3n(c2CCN1Cc1ccc(F)cc1)CCN(Cc1ccc(F)cc1)C3=O,,strand transfer,IC50,,<1 µM
Cc1ccc(/C(O)=C/C(=O)COc2c(C)cccc2Cc2cccc(Cc3cccc(Cc4cccc(C)c4O)c3OCC(=O)/C=C(\O)c3ccc(C)cc3)c2O)cc1,,strand transfer,IC50,,13.1 µM
O=C(NCc1ccc(F)cc1)c1nc[nH]c(=O)c1O,,strand transfer,IC50,,1 µM
COc1ccc2c(c1)c1c3c(ccc1n2C)C(=O)N(CCN(C)C)C3=O,,strand transfer,IC50,,>100 µM
O=C(/C=C(\O)c1cccc(OCc2ccccc2)c1)C(=O)NC1CCC(NC(=O)C(=O)/C=C(\O)c2cccc(OCc3ccccc3)c2)CC1,,3′ processing,IC50,,>100 µM
CN(C)CCCNC(=O)c1ccc2nc(-c3ccc4nc(-c5ccc(OCCOCCOCCOc6ccc(-c7nc8ccc(-c9nc%10ccc(C(=O)NCCCN(C)C)cc%10[nH]9)cc8[nH]7)cc6)cc5)[nH]c4c3)[nH]c2c1,,strand transfer,IC50,,23 µM
CC(C)c1cn(Cc2cccc(Cl)c2)c(=O)c2c(O)c(=O)c(-c3cccc(Cl)c3)cn12,,ELISA,IC50,,0.01–0.1 µM
CCO/C(CC(=O)NCc1ccc(C)cc1)=N\Nc1ccccc1[N+](=O)[O-],,strand transfer,IC50,,>250 µM
COC(=O)C(CNC(=O)/C=C/c1ccc(O)c(O)c1)NC(=O)/C=C/c1ccc(O)c(O)c1,,3′ processing,IC50,,1.95 µM
Cc1cc(CNC(=O)c2nc3n(c(=O)c2O)CC2(F)CCC3(NC(=O)C(=O)N(C)CC(C)C)CC2)ccc1F,,radiometric,Ki,,0.0000021 µM
Cc1cn2c(=O)c(O)c(-c3ncc(Cc4ccc(F)c(Cl)c4)s3)nc2s1,,strand transfer,IC50,E92Q/N155H,1–10 µM
COc1cccc2c1c(/C(O)=C\C(=O)C(=O)O)cn2Cc1ccc(F)cc1,IIIB,ELISA,IC50,,0.08 µM
Cc1cc(CNC(=O)c2nc3n(c(=O)c2O)CC2(F)CCC3(N(C)C(=O)C3CCOCC3)CC2)ccc1F,,radiometric,Ki,,0.0000141 µM
O=C(c1cc2cc(O)c(O)cc2[nH]1)N1CCN(C(=O)c2cc3cc(O)c(O)cc3[nH]2)CC1,,3′ processing,IC50,,3.6 µM
CCN(CC)CCCC(C)Nc1cncc2cc(Cl)ccc12,,strand transfer,IC50,,>300 µM
O=C1c2c(O)c(=O)c(NS(=O)(=O)c3ccccc3)cn2CCN1Cc1ccc(F)c(Cl)c1,,ELISA,IC50,,0.01–0.1 µM
CCOC(=O)c1cn2c(c1O)C(=O)N(Cc1ccc(Cl)cc1)CC2,,strand transfer,IC50,,<1.5 µM
Cc1cc(C(=O)N(C)C23CCC(F)(CC2)Cn2c3nc(C(=O)NCc3ccc(F)c(C)c3)c(O)c2=O)no1,,radiometric,Ki,,0.000002 µM
O=C(NCc1ccc(F)cc1)C1C(=O)N(O)C(=O)c2ccccc21,,strand transfer,IC50,,0.099 µM
CCN(CC)CCCC(C)Nc1ccnc2cc(OC)ccc12,,strand transfer,IC50,,>300 µM
Cc1cc(CNC(=O)c2nc3n(c(=O)c2O)CC2(N4CCC4)CCC3(NC(=O)C(=O)N(C)C)CC2)ccc1F,,radiometric,Ki,,0.000006 µM
O=C(/C=C/c1cc(O)c(O)c(O)c1)NCCCC(NC(=O)/C=C/c1cc(O)c(O)c(O)c1)C(=O)O,,3′ processing,IC50,,0.38 µM
O=C(O)C(=O)/C=C(\O)c1cc(=O)n(Cc2ccccc2)c(=O)n1Cc1ccccc1,,strand transfer,IC50,,2.7 µM
C=CCOc1ccc(C[C@H](NC(C)=O)C(=O)N[C@@H](CCCCN)C(=O)NCCCCC(=O)OC)cc1,,strand transfer,IC50,,9 µM
COc1ccc(/C=C2\C(=O)N(c3ccc(S(=O)(=O)O)cc3)NC2C(F)(F)F)cc1OCc1ccc(F)cc1,,strand transfer,IC50,,>100 µM
COc1cccc2c1c(/C(O)=C\C(=O)C(=O)O)cn2Cc1cc(F)ccc1F,IIIB,strand transfer / AlphaScreen,IC50,,0.03 µM
C=CCOc1ccc(C[C@H](NC(C)=O)C(=O)N[C@@H](CCCCN=C(N)N)C(=O)NC(CC(=O)OC)CC(=O)OC)cc1,,strand transfer,IC50,,35 µM
O=c1c(S(=O)(=O)c2ccccc2)cn2ccn(Cc3cccc(Cl)c3)c(=O)c2c1O,,ELISA,IC50,,0.01–0.1 µM
COc1ccc(/C=C2\C(=O)N(c3cccc(F)c3)NC2C(F)(F)F)cc1OCc1ccc(F)cc1,,strand transfer,IC50,,60 µM
O=C(/C=C/c1ccc(O)c(O)c1)NCC(NC(=O)/C=C/c1ccc(O)c(O)c1)C(=O)O,,3′ processing,IC50,,0.81 µM
O=C(O)/C(O)=C/C(=O)N(Cc1ccc(F)cc1)c1ccc(Cl)cc1,,strand transfer,IC50,,<70 µM
CN(C)C(=O)C(=O)N(C)C12CCC(CO)(CC1)Cn1c2nc(C(=O)NCc2ccc(F)cc2F)c(O)c1=O,,radiometric,Ki,,0.0000036 µM
Cc1cn2c(=O)c(O)c(C(=O)NCc3ccc(Cl)c(Cl)c3)nc2s1,,strand transfer,IC50,,0.001–1 µM
O=c1c(Br)cn2ccn(Cc3cccc(Cl)c3)c(=O)c2c1O,,ELISA,IC50,,0.01–0.1 µM
O=C(NCc1ccc(F)cc1)c1occc(=S)c1O,,strand transfer,IC50,,11.5 µM